Experimental data reported in paper PMC4814116, “Design of Novel Relaxase Substrates Based on Rolling Circle Replicases for Bioconjugation to DNA Nanostructures”.
A negative result means that nothing was seen under these conditions. Where a protein sequence is shown, tags need not be part of it.

Target: T1, MobAR (minMobA) (plasmid RSF1010) (UniProt P07112)
T1 sequence (looked up): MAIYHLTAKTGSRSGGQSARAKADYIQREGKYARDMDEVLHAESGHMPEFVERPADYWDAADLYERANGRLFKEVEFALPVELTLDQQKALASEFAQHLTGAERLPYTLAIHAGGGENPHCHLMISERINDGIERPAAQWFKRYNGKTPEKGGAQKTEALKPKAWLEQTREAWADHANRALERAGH
Assay: SDS-PAGE covalent complex
Settings: 5 mM Mg2+, no cleavage; Covalent complex: 15 uM oligo, 37 C 1 h, 5 mM MgCl2, 15 uM EDTA; TrwCR 10 mM Tris pH 7.6, 375 mM NaCl; MobAR 25 mM Tris pH 8.0, 225 mM NaCl; TraIR 10 mM Tris pH 7.6; recombinant protein; residues 1-186; folded or branched …

| Sequence | binding result |
| --- | --- |
| TAAGTGCGCCCTCCCAGCTGAATGTTCGAGTTTCTCGAAGAGAAACCG [RSF1010 RQ(8+40)] | no binding |
| TAAGTGCGCCCTCCCCAGTTTCTCGAAGAGAAACCG [RSF1010 RQ(8+28)] | no binding |
